Laboratory results from patent US20240122867A1, “CORONAL PROTEIN-COATED NANOPARTICLES AND USES THEREOF” (UNIVERSITY OF CENTRAL FLORIDA RESEARCH FOUNDATION, INC., priority 2021, published 2024).
Where two headings read alike, the source gives them in different places.

System: coronal proteins on NPs
Parameters: species or system mouse
Conditions: for V5 Sera_Nanoparticles Quantitative Value (Normalized Total Spectra): 20:1 NP:sera, centrifuged and washed; for V5 Sera Alone (Control) Quantitative Value (Normalized Total Spectra): IAV day 5 (V5) mouse sera alone
[1] = HBPE-NPs incubated 1 h with IAV day 5 (V5) mouse sera

Substance	V5 Sera_Nanoparticles Quantitative Value (Normalized Total Spectra) (HBPE-NPs incubated with IAV day 5 (V5) mouse sera 1 h)	V5 Sera Alone (Control) Quantitative Value (Normalized Total Spectra) (no NPs, mass spectrometry protein identification)	V5 Sera_Nanoparticles Quantitative Value (Normalized Total Spectra) [1]	V5 Sera Alone (Control) Quantitative Value (Normalized Total Spectra) (no NPs (sera-only control))
Tubulin beta-4B chain	0	2.7757	–	–
Vitamin K-dependent protein S	–	–	2.1758	0
von Willebrand factor	–	–	1.0879	0.9252
